Anti-infective test results gathered from many reports (values: NIAID ChemDB through PubChem).

All rows: host cell toxicity; read-out: CC50

Conditions beyond the fields shown may differ between rows.

{"smiles": "Cc1ccc(F)c(NC(=O)NCCc2ccc3c(n2)NCCC3)c1", "cell line": "PBMC", "result": "16.8 µM"}
{"smiles": "CC(CCOc1ccc(-c2ccccc2)cc1)CCOc1cccc(NC(N)=S)c1", "cell line": "Ava5-EG(delta4AB)SEAP", "method": "MTS", "result": ">1 µM"}
{"smiles": "O=C(NCCc1ccc2c(n1)NCCC2)N1CCc2ccccc21", "cell line": "PBMC", "result": "50 µM"}
{"smiles": "CC(C)C[C@@H]1NC(=O)[C@H](Cc2c[nH]c3ccccc23)NC(=O)[C@H](CCCCN)NC(=O)[C@H](CC(N)=O)NC(=O)[C@H](C(C)C)NC(=O)[C@@H](CC(C)C)NC1=O", "cell line": "Lung carcinoma cells", "method": "MTT", "result": ">30 µM"}
{"smiles": "CCCCc1ccc(Nc2ncnc3c2cnn3-c2ccccc2C)cc1", "cell line": "HUH 9B", "result": "27 µM"}
{"smiles": "COc1cccc(-c2cccc(NC(=O)NCCc3ccc4c(n3)NCCC4)n2)c1", "cell line": "PBMC", "result": "25 µM"}
{"smiles": "COc1ccc(C[C@H](N)C(=O)N[C@H]2[C@@H](O)[C@H](n3cnc4c(N(C)C)ncnc43)O[C@@H]2CO)cc1", "cell line": "HEPG2 (HB-8065)", "method": "WST", "result": "0.36 µg/mL"}
{"smiles": "COC(=O)N[C@H](C(=O)NC(CO)CCCC(CO)N(CCC(C)C)S(=O)(=O)c1ccc(N)cc1)C(c1ccccc1)c1ccccc1", "cell line": "T lymphoid cells", "method": "microscopy", "result": ">10 µM"}
{"smiles": "NC(=S)Nc1cccc(OCCCOc2ccc(-c3ccccc3)cc2)c1", "cell line": "Ava5-EG(delta4AB)SEAP", "method": "MTS", "result": ">1 µM"}
{"smiles": "Cc1cc(C2CC2)n2nc(S(=O)(=O)Nc3ccccc3C(F)(F)F)nc2n1", "cell line": "HEPG2 (HB-8065)", "method": "WST", "result": ">128 µg/mL"}
{"smiles": "CCOC(=O)CCCCCOc1cccc(CN(C(=O)c2ccc(-c3cccc(OCC(C)C)c3)cc2)C(C)C)c1", "cell line": "RAJI", "result": ">20 µM"}
{"smiles": "COC(=O)N[C@@H](Cc1ccccc1Cl)C(=O)N[C@@H](C)CCC[C@@H](CO)N(CC(C)C)S(=O)(=O)c1ccc(N)cc1", "cell line": "T lymphoid cells", "method": "microscopy", "result": ">10 µM"}
{"smiles": "NCc1ccc(-c2ccc(-c3c(-c4ccccc4)c(=O)n(O)c4ncc(F)cc34)cc2)cc1", "cell line": "HeLa", "result": "0.25 µM"}
{"smiles": "COc1ccc(Cl)cc1Nc1ncnc2c1cnn2-c1ccccc1", "cell line": "HUH 9B", "result": ">50 µM"}
{"smiles": "Cc1cc(C2CC2)n2nc(S(=O)(=O)Nc3c(C)ccc(Cl)c3C)nc2n1", "cell line": "HEPG2 (HB-8065)", "method": "WST", "result": ">128 µg/mL"}
{"smiles": "CCCN([C@H](CO)CCC[C@@H](NC(=O)[C@@H](NC(=O)OC)C(c1ccccc1)c1ccccc1)C1CC1)S(=O)(=O)c1ccc(CO)cc1", "cell line": "T lymphoid cells", "method": "microscopy", "result": ">10 µM"}
{"smiles": "O=c1cc(N[C@@H]2CCN(Cc3ccccc3)C2)c2cccnc2n1O", "cell line": "HeLa", "result": "<100 µM"}
{"smiles": "NS(=O)(=O)c1ccc(CCNc2ncnc3c2CNN3c2ccccc2Br)cc1", "cell line": "HUH 9B", "result": ">50 µM"}
{"smiles": "COc1ccc(C(O)C(Br)N=[N+]=[N-])cc1OC", "cell line": "RAJI", "result": "<13.5 µM"}
{"smiles": "COC(=O)N[C@H](C(=O)NC(C)(C)CCC[C@@H](CO)N(CCC(C)C)S(=O)(=O)c1ccc(N)cc1)C(c1ccccc1)c1ccccc1", "cell line": "T lymphoid cells", "method": "microscopy", "result": ">10 µM"}
{"smiles": "O=C(NCCc1ccc2c(n1)NCCC2)NC1Cc2ccccc2C1", "cell line": "PBMC", "result": "5.1 µM"}
{"smiles": "CCC(C)[C@@H]1NC(=O)[C@@H](CC(C)C)NC(=O)[C@H](CC(C)C)NC(=O)[C@H](Cc2c[nH]c3ccccc23)NC(=O)CNC(=O)[C@H](CC(N)=O)NC1=O", "cell line": "Lung carcinoma cells", "method": "MTT", "result": ">30 µM"}
{"smiles": "CCOC(=O)c1c(O)c2cc(-c3cccc(C#N)c3)cnc2n(O)c1=O", "cell line": "HeLa", "result": ">100 µM"}
{"smiles": "Cc1cc(C2CC2)n2nc(S(=O)(=O)Nc3c(C)cccc3C(C)C)nc2n1", "cell line": "K562 (CRL-1573)", "method": "WST", "result": ">128 µg/mL"}
{"smiles": "COc1cc2c(cc1NC(N)=S)oc1ccccc12", "cell line": "Ava5-EG(delta4AB)SEAP", "method": "MTS", "result": ">1 µM"}
{"smiles": "CC[C@@H](CCC[C@@H](CO)N(CCC(C)C)S(=O)(=O)c1ccc(N)cc1)NC(=O)[C@@H](NC(=O)OC)C1c2ccccc2C=Cc2ccccc21", "cell line": "T lymphoid cells", "method": "microscopy", "result": ">10 µM"}
{"smiles": "COc1ccc(OCCCCCOc2cccc(NC(N)=S)c2)c(Cl)c1", "cell line": "Ava5-EG(delta4AB)SEAP", "method": "MTS", "result": ">1 µM"}
{"smiles": "CC(C)C[C@@H]1NC(=O)[C@H](Cc2ccc(O)cc2)NC(=O)[C@@H](CCCCN)NC(=O)[C@H](CC(N)=O)NC(=O)[C@H](C(C)C)NC(=O)[C@@H](CC(C)C)NC1=O", "cell line": "Colorectal carcinoma", "method": "MTT", "result": ">30 µM"}
{"smiles": "Nc1ccc(Cc2ccc(-c3cc(=O)n(O)c4ncccc34)cc2)cc1", "cell line": "HeLa", "result": "<100 µM"}
{"smiles": "CCOC(=O)CCCCCOc1cccc(CN(C(=O)c2ccc(-c3ccc4cc[nH]c4c3)cc2)C(C)C)c1", "cell line": "HepG2", "result": ">20 µM"}
{"smiles": "NC(=S)Nc1cccc(OCCCCCCCCOc2cccc3ccccc23)c1", "cell line": "Ava5-EG(delta4AB)SEAP", "method": "MTS", "result": ">1 µM"}
{"smiles": "CC(C)N(Cc1cccc(OCCCCCC(=O)OC(=O)O)c1)C(=O)c1ccc(-c2cccc(C(F)(F)F)c2)cc1", "cell line": "BJ", "result": ">20 µM"}
{"smiles": "O=C1N[C@H]2CCCCC2Nc2c1c(=O)n(O)c1ncccc21", "cell line": "HeLa", "result": "<100 µM"}
{"smiles": "CC(C)C[C@@H]1NC(=O)[C@H](Cc2c[nH]c3ccccc23)NC(=O)[C@@H](CCCCN)NC(=O)[C@H](CC(N)=O)NC(=O)[C@H](CC(C)C)NC(=O)[C@@H](CC(C)C)NC1=O", "cell line": "Colorectal carcinoma", "method": "MTT", "result": ">30 µM"}
{"smiles": "CCOC(=O)CCCCOc1ccccc1C=O", "cell line": "HEK 293", "result": ">20 µM"}
{"smiles": "COC(=O)N[C@@H](Cc1ccccc1Cl)C(=O)N[C@H](CCC[C@@H](CO)N(C(C)C)S(=O)(=O)c1ccc(CO)cc1)C1CC1", "cell line": "T lymphoid cells", "method": "microscopy", "result": ">10 µM"}
{"smiles": "COc1ccc(-c2ccccc2OCCCCCOc2cccc(NC(N)=S)c2)cc1", "cell line": "Ava5-EG(delta4AB)SEAP", "method": "MTS", "result": ">1 µM"}
{"smiles": "CC(C)N(Cc1cccc(OCCCCCC(=O)OC(=O)O)c1)C(=O)c1ccc(-c2cccc(NC=O)c2)cc1", "cell line": "RAJI", "result": ">20 µM"}
{"smiles": "O=C(NCCc1ccc2c(n1)NCCC2)NCc1ccccc1N1CCOCC1", "cell line": "PBMC", "result": "50 µM"}
{"smiles": "CC(C)C[C@@H]1NC(=O)[C@H](Cc2c[nH]c3ccccc23)NC(=O)[C@@H](CCCCN)NC(=O)[C@H](CC(N)=O)NC(=O)[C@H](C(C)C)NC(=O)[C@@H](CC(C)C)N(C)C1=O", "cell line": "Colorectal carcinoma", "method": "MTT", "result": ">30 µM"}
{"smiles": "CCOc1cccnc1NC(=O)NCCc1ccc2c(n1)NCCC2", "cell line": "PBMC", "result": "50 µM"}
{"smiles": "CCOC(=O)CCCCCOc1cccc(CN(C(=O)c2ccc(-c3cccnc3)cc2)C(C)C)c1", "cell line": "RAJI", "result": ">20 µM"}
{"smiles": "O=C(NCCc1cccnc1)NCCc1ccc2c(n1)NCCC2", "cell line": "PBMC", "result": "50 µM"}
{"smiles": "COC(=O)N[C@H](C(=O)N[C@H](CCC[C@@H](CO)N(CC(C)C)S(=O)(=O)c1ccc(CO)cc1)C(F)(F)F)C(c1ccccc1)c1ccccc1", "cell line": "T lymphoid cells", "method": "microscopy", "result": ">10 µM"}
{"smiles": "CCCc1ccc(S(=O)(=O)NCCc2ccc3c(n2)NCCC3)cc1", "cell line": "PBMC", "result": "50 µM"}
{"smiles": "Cc1ccc(NC(=O)Nc2ncnc3c2cnn3-c2ccc(C)cc2C)cc1", "cell line": "HUH 9B", "result": "38 µM"}
{"smiles": "NC(=S)Nc1cccc(OCCCCCNc2ccc(C3CCCCC3)cc2)c1", "cell line": "Ava5-EG(delta4AB)SEAP", "method": "MTS", "result": ">1 µM"}
{"smiles": "O=C(NCCc1ccc2c(n1)NCCC2)Nc1ccccc1-c1ccccc1", "cell line": "PBMC", "result": "9 µM"}

Repeating the first 3 entries:

smiles	cell line	method	result
Cc1ccc(F)c(NC(=O)NCCc2ccc3c(n2)NCCC3)c1	PBMC		16.8 µM
CC(CCOc1ccc(-c2ccccc2)cc1)CCOc1cccc(NC(N)=S)c1	Ava5-EG(delta4AB)SEAP	MTS	>1 µM
O=C(NCCc1ccc2c(n1)NCCC2)N1CCc2ccccc21	PBMC		50 µM

Blank or dashed fields: not listed here. CCn is the concentration with n% toxicity to the cells.